Compound potency records, mixed from different reports. Data source: NIAID ChemDB in PubChem.

Common to all: growth or infection tests; organism: Mycobacterium tuberculosis

ECn is the concentration giving n% inhibition of infection, replication or growth.

| smiles | strain | dose | measure | cell line | setting | read by | mutations | result |
|---|---|---|---|---|---|---|---|---|
| O=[N+]([O-])c1ccc(OCc2nn3c(-c4ccc(Br)cc4)nnc3s2)cc1 | Clinical isolate MDRTB |  | MIC |  |  |  | Isoniazid- and rifampin-resistant | 4 µg/mL |
| CCCCCCCCOC1OC([C@H](CO)OC2O[C@@H](C(O)CO)[C@H](O)[C@H]2O)[C@H](O)[C@H]1O | H37Ra |  | MIC |  |  |  |  | >128 µg/mL |
| CCCCCCCCCCCCN1C(=O)C(CC(=O)O)SC12CCN(C(=O)C(N)C(C)CC)CC2 | H37Ra |  | EC50 |  |  | resazurin |  | <25 µg/mL |
| O=[N+]([O-])c1ccc(OCc2nn3c(-c4ccc(Cl)cc4)nnc3s2)cc1 | Clinical isolate MDRTB |  | MIC |  |  |  | Isoniazid- and rifampin-resistant | 2 µg/mL |
| COc1c(N2C[C@@H]3C(CN)[C@@H]3C2)c(F)cc2c(=O)c(C(=O)O)cn(C3CC3)c12 |  |  | MIC |  |  |  |  | 64 µg/mL |
| CCCCCCCCO[C@@H]1O[C@@H](C(COCc2ccccc2)O[C@@H]2O[C@@H](C(COC(C)=O)OC(C)=O)[C@H](OC(C)=O)[C@H]2OC(C)=O)[C@H](OCc2ccccc2)[C@H]1OCc1ccccc1 | H37Ra |  | MIC |  |  |  |  | >128 µg/mL |
| CC1COc2c(N3CCN(C)CC3)c(F)cc3c(=O)c(C(=O)O)cn1c23 | Clinical isolates |  | MIC |  | clinical isolate |  |  | 1 µg/mL |
| O=C1c2cc(Br)ccc2-n2c1nc1ncccc1c2=O | H37Rv |  | MIC |  |  |  |  | 0.03 µg/mL |
| COc1c(N2C[C@@H]3C(N)[C@@H]3C2)c(F)cc2c(=O)c(C(=O)O)cn(-c3ccc(F)cc3F)c12 |  |  | MIC |  |  |  |  | 256 µg/mL |
| CC(=O)Nc1ccc(OCC(=O)NN2C(=O)C(C)SC2c2ccccc2[N+](=O)[O-])cc1 | H37Rv |  | EC50 |  |  |  |  | >12.5 µg/mL |
| O=C(/C=C/c1ccccc1)n1c(CCl)nc2ccccc21 | H37Rv |  | MIC100 |  |  | resazurin / visual reading |  | 25 µg/mL |
| CC(C)CCC(=O)c1ccoc1 | H37Rv | 12.5 µg/mL | inhibition |  |  | BACTEC |  | 26% |
| CCCCCCCCCCCCN1C(=O)C(CC(=O)O)SC12CCN(C(=O)C(N)CCCCN)CC2 | H37Ra | 25 µg/mL | inhibition |  |  | resazurin |  | 96% |
| NCC[C@H](O)C(=O)N[C@@H]1C[C@H](N)[C@@H](O[C@H]2O[C@H](CN)[C@@H](O)[C@H](O)[C@H]2O)[C@H](O)[C@H]1O[C@H]1O[C@H](CO)[C@@H](O)[C@H](N)[C@H]1O | 6S |  | MIC |  |  |  |  | 2.5 µg/mL |
| CCSc1nc(NC)c2ccc(F)c(F)c2n1 | H37Rv |  | MIC99 |  |  | fluorescence |  | 0.05 µg/mL |
| Cc1cc(Cl)ccc1OCc1nn2c(-c3ccc(Br)cc3)nnc2s1 | Clinical isolate MDRTB |  | MIC |  |  |  | Isoniazid- and rifampin-resistant | 8 µg/mL |
| Clc1ccc(-c2nnc(/N=C\c3ccco3)s2)cc1 | H37Rv |  | MIC |  |  | resazurin |  | 3.125 µg/mL |
| CCS/C(N)=N\N=C\c1cccnc1 | H37Rv (ATCC 27294) |  | MIC |  |  |  |  | >100 µg/mL |
| CC[S+](C)c1ccc(-c2c3nc(c(-c4ccc([S+](C)CC)cc4)c4ccc([nH]4)c(-c4ccc([S+](C)CC)cc4)c4nc(c(-c5ccc([S+](C)CC)cc5)c5ccc2[nH]5)C=C4)C=C3)cc1.[O-][Cl+3]([O-])([O-])[O-].[O-][Cl+3]([O-])([O-])[O-].[O-][Cl+3]([O-])([O-])[O-].[O-][Cl+3]([O-])([O-])[O-] | H37Rv | 12.5 µg/mL | inhibition |  |  | BACTEC |  | 65% |
| O=C1c2cc(C3OCCCO3)ccc2-n2c1nc1ccncc1c2=O | H37Rv |  | MIC |  |  |  |  | 0.5 µg/mL |
| CCCCCCCCCCCCCCC1=C(O)c2ncccc2C(=O)C1=O | H37Rv | 6.25 µg/mL | inhibition |  |  | resazurin |  | 33% |
| C/C(=N\Nc1nc(-c2cccs2)cs1)c1ccncc1 | H37Rv (ATCC 27294) |  | EC90 |  |  | resazurin |  | >100 µg/mL |
| COc1cc(/C=N/NC(=O)COc2ccc(NC(C)=O)cc2)cc(OC)c1OC | H37Rv | 12.5 µg/mL | inhibition |  |  |  |  | 1% |
| C[C@@H]1CCC([C@@H](C)C(=O)OCCO)[C@@]23OO[C@@](C)(CCC12)O3 | H37Ra |  | MIC |  |  | resazurin |  | 12.5 µg/mL |
| O=C1NC(=S)N/C1=C/c1cccc(Oc2ccccc2)c1 | H37Rv | 6.25 µg/mL | inhibition |  |  |  |  | 78% |
| CCCCCCCCN1C(=O)C(C)SC12CCCCC2 | H37Ra |  | EC50 |  |  | resazurin |  | <25 µg/mL |
| CC(C)c1ccc(/C=C2/NC(=S)NC2=O)cc1 | H37Rv |  | EC50 |  |  |  |  | <6.25 µg/mL |
| CN1C(=O)Cn2c(nn(CCN3CCCC3)c(=O)c2=O)-c2cc(Cl)ccc21 | H37Rv |  | MIC bound |  |  | BACTEC |  | >12.5 µg/mL |
| CC(=O)Nc1ccc(OCC(=O)NN2C(=O)C(C)SC2c2ccccc2O)cc1 | H37Rv |  | EC50 |  |  |  |  | >12.5 µg/mL |
| COC1=CCC2=C(CC[C@H]3[C@H]2CCP3C)C1 | H37Rv |  | MIC bound |  |  | resazurin |  | >6.25 µg/mL |
| CC(=O)c1ccc(O)c(-c2csc(N/N=C(\C)c3cccnc3)n2)c1 | H37Rv (ATCC 27294) |  | EC50 |  |  | resazurin |  | >100 µg/mL |
| CCC[N+]12CC=C3COC(=O)C(C)(O)C(C)(O)C(C)C(=O)OC(CC1)C32.[Br-] | H37Rv | 12.5 µg/mL | inhibition |  |  | BACTEC |  | -2% |
| Cc1cccc2c(=O)n3c(nc12)C(=O)c1ccccc1-3 | H37Rv |  | MIC |  |  |  |  | 0.5 µg/mL |
| CCCCCCCCO[C@@H]1O[C@H]([C@@H](COC)O[C@H]2O[C@H](CO)[C@@H](O)[C@@H]2O)[C@H](OC)[C@H]1OC | H37Ra |  | MIC |  |  |  |  | >128 µg/mL |
| CS/C(N)=N\N=C\c1ccnnc1 | ATCC 35822 (isoniazid-resistant) |  | MIC |  |  |  |  | >100 µg/mL |
| CCCCCCCCCCCCN1C(=O)C(CC(=O)O)SC12CCCCCCC2 | H37Ra | 25 µg/mL | inhibition |  |  | resazurin |  | 96% |
| NC[C@H]1O[C@H](O[C@H]2[C@H](O)[C@@H](O[C@H]3O[C@H](CO)[C@@H](O)[C@H](N)[C@H]3O)[C@H](N)C[C@@H]2N)[C@H](O)[C@@H](O)[C@@H]1O | H37Rv |  | MIC |  |  |  |  | 1 µg/mL |
| O=[N+]([O-])[O][Ga]([O][N+](=O)[O-])[O][N+](=O)[O-] | Erdman | 500 µM | inhibition |  |  |  |  | 65% |
| CCCCCCCCO[C@H]1OC(CO[C@H]2O[C@H](CO)[C@@H](O)[C@@H]2OCc2ccccc2)[C@@H](OCc2ccccc2)[C@@H]1OCc1ccccc1 | H37Ra |  | MIC |  |  |  |  | >128 µg/mL |
| COC(=O)C(=O)C1CCc2c(C(=O)OC)nc3[nH]n(-c4ccccc4)c(=O)c3c21 | H37Rv |  | MIC |  |  | BACTEC |  | ≥12.5 µg/mL |
| CC(=O)O[C@H]1C[C@@]2(C)[C@@H](C[C@@H](O)[C@H]3[C@@]4(C)CC[C@@H](O)[C@@H](C)[C@@H]4CC[C@@]32C)/C1=C(\CCC=C(C)C)C(=O)O | 19 strains (drug-resistant) |  | MIC50 |  |  |  |  | ≤16 µg/mL |
| COC(=O)[C@@]1(C)CCC[C@]2(C)[C@@H]1C[C@H]1O[C@]13[C@@H](O)[C@]1(C(C)C)O[C@@H]1[C@H]1O[C@]132 | H37Rv | 12.5 µg/mL | inhibition |  |  | BACTEC |  | 28% |
| O=C(/C=C/c1ccccc1)n1c(-c2ccc([N+](=O)[O-])cc2)nc2ccccc21 | H37Rv |  | MIC100 |  |  | resazurin / visual reading |  | 50 µg/mL |
| Oc1ccccc1-c1nnc2sc3c(Cl)c4nn5c(-c6ccccc6O)nnc5sc4c(Cl)c3nn12 | H37Rv |  | MIC bound |  |  | BACTEC |  | >12.5 µg/mL |
| CCCCCCCCCCCCN1C(=O)C(CC(=O)O)SC12CCN(C(=O)C(N)CC(=O)O)CC2 | H37Ra |  | EC50 |  |  | resazurin |  | >25 µg/mL |
| O=C1NC(=O)/C(=C/c2ccc(C(F)(F)F)cc2)N1 | H37Rv | 6.25 µg/mL | inhibition |  |  |  |  | 78% |
| CCCCCCCCCCCCN1C(=O)C(C)SC12CCCCC2 | H37Ra | 25 µg/mL | inhibition |  |  | resazurin |  | 2% |
| Cc1ccc2ncn(C(=O)/C=C/c3ccccc3)c2c1 | H37Rv |  | MIC100 |  |  | resazurin / visual reading |  | 50 µg/mL |
| Cc1cc(N(CCC#N)S(C)(=O)=O)ccc1C=Nc1ccc(C(=O)N[N+]2=C(c3cc([N+](=O)[O-])ccc3Cl)NC(=O)/C2=C/c2ccc(N(CCC#N)CCC#N)cc2C)cc1 | H37Rv |  | MIC bound |  |  | BACTEC |  | >12.5 µg/mL |
| COc1ccc(OCc2nn3c(-c4ccc(Br)cc4)nnc3s2)cc1 | Clinical isolate MDRTB |  | MIC |  |  |  | Isoniazid- and rifampin-resistant | 8 µg/mL |
| Cc1ccc2nc3n(c(=O)c2c1)-c1ccc(F)cc1C3=O | H37Rv |  | MIC |  |  |  |  | 0.13 µg/mL |
| O=C1NC(=S)N/C1=C/c1cccc(OCc2ccc(Cl)cc2)c1 | H37Rv |  | EC50 |  |  |  |  | <6.25 µg/mL |
| CCCCCCCCO[C@@H]1O[C@H]([C@@H](CO)O[C@H]2O[C@H](CO)[C@@H](O)[C@@H]2O)[C@H](O)[C@H]1O | H37Ra |  | MIC |  |  |  |  | >128 µg/mL |
| COc1c(N2C[C@@H]3C(CN)[C@@H]3C2)c(F)cc2c(=O)c(C(=O)O)cn(-c3ccc(F)cc3F)c12 |  |  | MIC |  |  |  |  | 128 µg/mL |
| COc1ccc2ncc(COC(C)=O)c(COC(C)=O)c2c1 | H37Rv | 12.5 µg/mL | inhibition |  |  | BACTEC |  | 52% |
| O=C1c2cc(Br)ccc2-n2c1nc1ccncc1c2=O | H37Rv |  | MIC |  |  |  |  | <0.06 µg/mL |
| Cc1ccc(S(=O)(=O)NC(=O)OCCc2c3ccccc3nc3ccccc23)cc1 | H37Rv |  | MIC |  |  | BACTEC |  | 12.5 µg/mL |
| O=C1c2cc(I)ccc2-n2c1nc1ncccc1c2=O | TN1618RFLF:P (MDR) |  | MIC |  |  |  |  | 0.03 µg/mL |
| CC1=NN(C(=O)c2ccc(Cl)cc2)C(=O)C1N=Nc1ccc(S(=O)(=O)Nc2ccccn2)cc1 | H37Rv |  | MIC bound |  |  | BACTEC |  | >12.8 µg/mL |
| COc1c(N2CCNC(C)C2)c(F)cc2c(=O)c(C(=O)O)cn(C3CC3)c12 |  |  | MIC |  |  |  |  | 0.12 µg/mL |
| CCCCCCCCN1C(=O)CS(=O)(=O)C12CCCCC2 | H37Ra | 25 µg/mL | inhibition |  |  | resazurin |  | 81% |
| CC1(C)CCC[C@@]2(C)C3=C(CC[C@H]12)C(O)OC3 | H37Rv |  | MIC |  |  | BACTEC |  | ≥12.5 µg/mL |
| CO[C@H]1/C=C/O[C@@]2(C)Oc3c(C)c(O)c4c(O)c(c(/C=N/N5CCN(C)CC5)c(O)c4c3C2=O)NC(=O)/C(C)=C\C=C\[C@H](C)[C@H](O)[C@@H](C)[C@@H](O)[C@@H](C)[C@H](OC(C)=O)[C@@H]1C | 5S |  | MIC |  |  |  |  | 1 µg/mL |
| CCCC[N+](CCCC)=c1ccc2nc3c(C)cc(N(CC)CC)cc3sc-2c1 | H37Rv |  | MIC | VERO |  | BACTEC |  | 0.4 µg/mL |
| Fc1ccc(OCc2nn3c(Cc4ccc5ccccc5c4)nnc3s2)cc1 | Clinical isolate MDRTB |  | MIC |  |  |  | Isoniazid- and rifampin-resistant | 8 µg/mL |
| Cc1cc(Cc2cc(C)cc(S(=O)(=O)O)c2O)c(O)c(S(=O)(=O)O)c1 | H37Rv |  | MIC bound |  |  | BACTEC |  | >12.5 µg/mL |
| O=[N+]([O-])c1ccc(OCc2nn3c(Cc4ccc5ccccc5c4)nnc3s2)cc1 | Clinical isolate MDRTB |  | MIC |  |  |  | Isoniazid- and rifampin-resistant | 168.5 µg/mL |
| O=C1NC(=S)N/C1=C\c1ccc(OCc2ccc(Cl)cc2)cc1 | H37Rv | 6.25 µg/mL | inhibition |  |  |  |  | 70% |
| c1ccc(COC2(OCc3ccccc3)CC3OC2C2NN=NC32)cc1 | H37Rv | 12.5 µg/mL | inhibition |  |  | BACTEC |  | 29% |
| O=C(/C=C/c1ccccc1)n1c(-c2ccccc2O)nc2ccccc21 | H37Rv |  | MIC100 |  |  | resazurin / visual reading |  | 25 µg/mL |
| Cc1cnc(C)c(NS(=O)(=O)c2ccc(N)cc2)n1 | H37Rv | 12.5 µg/mL | inhibition |  |  | BACTEC |  | 20% |
| O=C1c2cc(OC(F)(F)F)ccc2-n2c1nc1cnccc1c2=O | H37Rv |  | MIC |  |  |  |  | 0.03 µg/mL |
| Cc1cc(O)c(C(C)C)cc1NC(=S)Nc1cc(C(C)C)c(O)cc1C |  | 0.5 µM | inhibition |  |  | BACTEC |  | 0% |
| CCCCCCCCN1C(=O)CSC12CCCCC2 | H37Ra |  | EC50 |  |  | resazurin |  | <25 µg/mL |
| COC1=CC(=O)C(CCC(C)=O)=CC1=O | H37Rv | 128 µg/mL | inhibition |  |  | BACTEC |  | 98% |
| CN(CCO)c1ccc2c(=O)n3c(nc2c1)C(=O)c1cc(OC(F)(F)F)ccc1-3 | H37Rv |  | MIC |  |  |  |  | 0.13 µg/mL |

Percent inhibition refers to the dose given; in toxicity tests it is the harm to the cells. MIC bound: limit read from a one-dose screen. An empty or dashed field is not shown. A number after MIC or MFC names an inhibition level or a share of isolates. Conditions beyond the fields shown may differ between rows.